{
  "source": "patent US10899795B2",
  "about": "“Modified epitopes for boosting CD4+ T-cell responses” (Katholieke Universiteit Leuven, priority 2012, dated 2021)",
  "system": "hemagglutinin-loaded dendritic cells",
  "assay": "CD8+ T cell-dependent lysis of hemagglutinin-loaded dendritic cells, 51Cr release, with CD4+ T cells from peptide-immunized mice",
  "format": "cell-based, C57BL/6 mice",
  "conditions": "CD4+ T cells from mice immunized with the peptide plus CD8+ T cells from hemagglutinin-immunized mice",
  "data": [
    {"sequence": "YSTVASSLV", "values": [
      {"measurement": "lysis of hemagglutinin-loaded dendritic cells (51Cr release)", "result": "no lysis"}
    ]}
  ]
}
